A mixed list of measured activities; the numbers were collected in NIAID ChemDB.

All rows: whole-cell or culture tests; organism: Aspergillus fumigatus; read-out: MIC

Rows are shuffled and stem from different studies.

structure | strain | value
COc1cc(O)c2c(c1)C(=O)c1c(cc3c(c1O)-c1c(cc(C)c(C(=O)NCC(=O)O)c1O)[C@H](O[C@@H]1O[C@H](C)[C@H](N)[C@H](O[C@@H]4OC[C@@H](O)[C@H](O)[C@H]4O)[C@H]1O)[C@H]3O)C2=O | IAM2034 | 6.3 µg/mL
Cc1nn(S(=O)(=O)c2ccccc2)c(C)c1C(F)(F)C(O)(Cn1cncn1)c1ccc(F)cc1F | IFM 40808 | >8 µg/mL
CN1CCN(c2nc(Nc3ccc(C#N)c(C(F)(F)F)c3)nc(Oc3ncnc4ccccc34)n2)CC1 | MTCC 343 | >100 µg/mL
NC(=S)c1ccnc(SCc2ccccc2)c1 | 231 | >500 µM
O=C(Nc1c(F)cccc1F)OCCCN1CCN(c2nc3ccccc3s2)CC1 | CF924390 | 0.47 µg/mL
C[C@@H](n1ccn(-c2ccc(OC(F)(F)C(F)F)cc2)c1=O)C(O)(Cn1cncn1)c1ccccc1F | IFO6344 | 2 µg/mL
N#Cc1ccc(Nc2nc(Oc3ncnc4ccccc34)nc(N3CCN(c4ncccn4)CC3)n2)cc1C(F)(F)F | MTCC 343 | >100 µg/mL
OC(Cn1cncn1)(c1ccc(F)cc1F)C(F)(F)c1nc2ccccc2o1 | IFM 40808 | 8 µg/mL
CCOC(=O)c1sc(SC)cc1-c1ccc(-c2cccnc2)cc1 | AF-27 | 50 µg/mL
C[C@@H](N1CCN(c2ccc(OCC(F)(F)C(F)F)cc2)C1=O)C(O)(Cn1cncn1)c1ccccc1F | IFO6344 | 0.5 µg/mL
CCCCCS(=O)(=O)[C@H](C)[C@](O)(Cn1cncn1)c1ccc(F)cc1F | MTU6001 | 12.5 µg/mL
NC(=S)c1ccnc(SCc2cccc(Br)c2)c1 | 231 | >500 µM
CSc1cc(-c2ccc(-c3cccnc3)cc2)c(C(=O)O)s1 | AF-27 | >100 µg/mL
C[C@@H](SCCCCCCCC(N)=O)[C@](O)(Cn1cncn1)c1ccc(F)cc1F | MTU6001 | 1.56 µg/mL
N#Cc1ccc(Nc2nc(Oc3ncnc4ccccc34)nc(N3CCCCC3)n2)cc1C(F)(F)F | MTCC 343 | >100 µg/mL
Cc1onc(-c2ccccc2Cl)c1C=O | Clinical isolates | 50 µg/mL
CCOC(=O)c1sc(SC)cc1-c1ccc(C)cc1 | AF-27 | >100 µg/mL
Cc1ccc(C(C)C)c(O)c1 | F17 | 0.16 µg/mL
OC(Cn1cncn1)(c1ccc(F)cc1F)C(F)(F)c1nc(Br)cs1 | IFM 40808 | 2 µg/mL
CCOC(=O)c1sc(SC)c(C(=O)OCC)c1O | AF-27 | >100 µg/mL
C[C@@H](n1ncn(-c2ccc(OCC(F)(F)C(F)F)cc2)c1=O)[C@](O)(Cn1cncn1)c1ccc(F)cc1F | TIMM1728 | 2 µg/mL
O=Cc1cc(-c2ccccc2Cl)no1 | Clinical isolates | >50 µg/mL
O=S(=O)(c1ccccc1)n1cc(C(F)(F)C(O)(Cn2cncn2)c2ccc(F)cc2F)c2ccccc21 | IFM 40808 | >64 µg/mL
CCCCCCCS[C@H](C)[C@](O)(Cn1cncn1)c1ccc(F)cc1F | MTU6001 | 0.39 µg/mL
OC(Cn1cncn1)(c1ccc(F)cc1F)C(F)(F)c1ncccn1 | IFM 40808 | >8 µg/mL
NC(=S)c1ccnc(SCc2cccc(F)c2)c1 | 231 | >1000 µM
C[C@@H](n1ccn(-c2ccc(OCC(F)(F)C(F)F)cc2)c1=O)C(O)(Cn1cncn1)c1ccccc1F | IFO6344 | 4 µg/mL
CSc1cc(-c2ccc(Cl)cc2)c(C(=O)O)s1 | AF-27 | >100 µg/mL
CC(=O)c1cc(C(=O)c2nn(-c3ccc(Cl)cc3)c(=NC(=O)c3ccccc3)s2)n(-c2ccccc2)n1 | 002003 | 31.3 µg/mL
Nc1[nH]c(=O)ncc1F | X807219 | 2 µg/mL
NC(=S)c1ccnc(SCc2ccccc2Cl)c1 | 231 | >1000 µM
CCCCCS[C@H](C)[C@](O)(Cn1cncn1)c1ccc(F)cc1F | MTU6001 | 0.39 µg/mL
COc1ccc(-n2nc(C(=O)c3cc(C(C)=O)nn3-c3ccccc3)sc2=NC(=O)c2ccccc2)cc1 | 002003 | 125 µg/mL
CCCCCCCCCS[C@H](C)[C@](O)(Cn1cncn1)c1ccc(F)cc1F | MTU6001 | 0.78 µg/mL
N#Cc1ccc(Nc2nc(Oc3ncnc4ccccc34)nc(N3CCN(c4ccccn4)CC3)n2)cc1C(F)(F)F | MTCC 343 | >100 µg/mL
Cc1ccc(-c2cc(C=O)no2)cc1 | Clinical isolates | >50 µg/mL
O=C(N=c1sc(-c2ccnc3nc4ccccc4n23)nn1-c1ccc(Cl)cc1)c1ccccc1 | 002003 | 125 µg/mL
C[C@@H](N1CCN(c2ccc(F)cc2)C1=O)C(O)(Cn1cncn1)c1ccc(F)cc1F | IFO6344 | 8 µg/mL
O=Cc1cc(-c2ccc(Cl)cc2)no1 | Clinical isolates | 50 µg/mL

A second listing of 6 rows from above:

{"structure": "CC(=O)c1cc(C(=O)c2nn(-c3ccc(Cl)cc3)c(=NC(=O)c3ccccc3)s2)n(-c2ccccc2)n1", "strain": "002003", "value": "31.3 µg/mL"}
{"structure": "CSc1cc(-c2ccc(-c3cccnc3)cc2)c(C(=O)O)s1", "strain": "AF-27", "value": ">100 µg/mL"}
{"structure": "NC(=S)c1ccnc(SCc2cccc(Br)c2)c1", "strain": "231", "value": ">500 µM"}
{"structure": "COc1cc(O)c2c(c1)C(=O)c1c(cc3c(c1O)-c1c(cc(C)c(C(=O)NCC(=O)O)c1O)[C@H](O[C@@H]1O[C@H](C)[C@H](N)[C@H](O[C@@H]4OC[C@@H](O)[C@H](O)[C@H]4O)[C@H]1O)[C@H]3O)C2=O", "strain": "IAM2034", "value": "6.3 µg/mL"}
{"structure": "O=C(Nc1c(F)cccc1F)OCCCN1CCN(c2nc3ccccc3s2)CC1", "strain": "CF924390", "value": "0.47 µg/mL"}
{"structure": "OC(Cn1cncn1)(c1ccc(F)cc1F)C(F)(F)c1ncccn1", "strain": "IFM 40808", "value": ">8 µg/mL"}